The results in this text go back to US20070161078A1.

For assay [1], the target named is MBP.NS1 H5N1B (ESEV) (influenza A H5N1) (UniProt Q6DP28). The assay can be described thus: direct binding assay titration.
For assay [2] the target is unchanged. The assay can be described thus: titration, direct binding sandwich assay.
The target is the same in assay [3]. The assay can be described thus: G assay titration.

By EC50 is commonly meant the concentration needed to bring the measured effect to its halfway point. Higher therefore signals lower potency in that assay. For “PSD95 d1,2,3 (from UniProt P78352 59-402)”, the EC50 in assay [1] came to 0.3 µg/mL; in assay [2], 0.29 µg/mL; in assay [3], 0.3 µg/mL.

On to DLG1 d1,2 (from UniProt Q12959 218-410), for which the figures for the EC50 in assay [1] and in assay [3] were 0.4 µg/mL and 0.2 µg/mL, respectively.
